A mixed list of measured activities; the numbers were collected in NIAID ChemDB.

Shared fields: growth or infection tests; species: HIV-1; cell line: MT-4; endpoint: EC50

a–b is a range or a potency band. An empty or dashed field is not shown. ECn: concentration that inhibits the pathogen or its effect by n%. Conditions beyond the fields shown may differ between rows.

structure | strain | mutations | method | setting | value
Nc1ccn([C@@H]2CO[C@@H](CO)O2)c(=O)n1 |  |  | cytopathic effect |  | >437 µM
[O-][n+]1nc2ccnn2c2ccccc21 | IIIB |  | cytopathic effect / MTT |  | >200 µM
Nc1nc(NC2CC2)c2ncn([C@H]3C=C[C@@H](CO)C3)c2n1 | XM-Q151M | RT-A62V V75I F77C F116Y Q151M | p24 |  | <4.6 µM
Cc1ccnc2c1NC(=O)c1cccnc1N2C1CC1 | RES056 | K103N | MTT |  | >15 µM
CCOC(=O)[C@H](C)NC(O)(Oc1ccccc1)Oc1nc(N(C)C)nc(C(C)c2c(F)cccc2F)c1C |  | Y181C resistant | MTT |  | 1 µM
CCO[C@]12CS(=O)(=O)O[C@@]13[C@@H](CN2)O[C@@H](n1ccc(=O)[nH]c1=O)[C@@H]3O[Si](C)(C)C(C)(C)C | IIIB |  |  |  | >50 µM
Cc1cc(/C=C/C#N)cc(C)c1Oc1ccnc(Nc2ccc(CN3CCN(S(=O)(=O)N(C)C)CC3)cc2)n1 |  | F227L V106A | MTT |  | >3.07 µM
Clc1cc(CN2CCCNCCNCCCNCC2)cc(Cl)n1 | IIIB X4 |  | p24 |  | 1.2 µM
CC(C)(C)[Si](C)(C)OC[C@@H]1CC[C@H](n2cnc3c(=O)n(CC(=O)O)cnc32)O1 | IIIB |  | cytopathic effect / trypan blue |  | >200 µM
CCO[C@]12CS(=O)(=O)O[C@@]13C(CN2)O[C@@H](n1cc(C)c(=O)n(C)c1=O)[C@@H]3O[Si](C)(C)C(C)(C)C | IIIB |  |  |  | 3.6 µM
CCN1C2=NN(Cc3ccc(F)cc3OCCCCS1(=O)=O)C(=O)C1C(O)=C3C(=O)N(C(C)C)C[C@H](C)N3C21 | LAII(IIIB) |  |  |  | 0.7 µM
Cc1cn([C@@H]2O[C@@H]3CN[C@@]4(C(N)=O)CS(=O)(=O)O[C@@]34[C@H]2O)c(=O)[nH]c1=O | IIIB |  |  |  | >250 µM
CN1CCN(C(=O)c2ccc(C3=NN4C(C(=O)c5ccc(F)cc5)Oc5ccccc5C4C3)cc2)CC1 | LAI |  | GFP / reporter gene |  | <1 µM
C=C1C[C@@]23CC[C@@H]4[C@@H](C)[C@H](O)CC[C@@]4(C)[C@@H]2C[C@@H]1[C@@H](O)C3=O |  |  | MTT |  | >25 µg/mL
COC(=O)c1ccc(CN2CCC(Nc3nc(Oc4c(C)cc(C#N)cc4C)c4ccsc4n3)CC2)cc1 | IIIB | NNRTI-resistant (RT E138K) | MTT |  | 0.0356 µM
CCc1c(Cc2ccccc2C)n(COCC#CC2c3ccccc3-c3ccccc32)c(=O)[nH]c1=O | IIIB | Y181C | MTT |  | >50 µM
CC1(C)[C@H]2CC[C@@]34CC[C@@H](C[C@H]3[C@]2(C)CC[C@@H]1O)C([C@@H](O)CO)C4 |  |  | MTT |  | >25 µg/mL
Cc1cc(/C=C/C#N)cc(C)c1Oc1nc(NC2CCN(Cc3ccccn3)CC2)nc2ccsc12 | IIIB | NNRTI-resistant (RT L100I) | MTT |  | 0.0184 µM
CCC(C)[C@@H](C(=O)N[C@@H](Cc1ccccc1)[C@H](O)CN(CC(C)C)S(=O)(=O)c1ccc(/C=N/O)cc1)N1CCN(Cc2ccccn2)C1=O |  |  | cytopathic effect / MTT | 50% human serum | 0.016 µM
Cc1cn([C@@H]2OC3CN[C@@]4(OCC(C)C)CS(=O)(=O)O[C@@]34[C@H]2O[Si](C)(C)C(C)(C)C)c(=O)[nH]c1=O | IIIB |  |  |  | 5.2 µM
CCN1C[C@H](C)N2C(=C(O)C3C(=O)N4Cc5cc(Cl)c(F)cc5OCCCCCNC(=O)C(=N4)C32)C1=O | LAII(IIIB) |  |  |  | 5.93 µM
CCOC(=O)c1ccc(CN2CCC(Nc3nc(Oc4c(C)cc(C#N)cc4C)c4ccsc4n3)CC2)cc1 | IIIB | NNRTI-resistant (RT K103N) | MTT |  | 0.369 µM
CCc1c(Cc2cc(C)cc(C)c2)n(COCC#Cc2cccc(C#N)c2)c(=O)[nH]c1=O | IIIB | WT | MTT |  | 0.01 µM
Cc1cn([C@@H]2CS[C@@H](CO)O2)c(=O)[nH]c1=O |  |  | cytopathic effect |  | >410 µM
Cc1cn([C@@H]2O[C@H](CO[Si](C)(C)C(C)(C)C)[C@@H](O)[C@H]2O[Si](C)(C)C(C)(C)C)c(=O)n(CCC(=O)O)c1=O | IIIB |  | cytopathic effect / trypan blue |  | >10 µM
CCOC(=O)c1cnn2c1nnc1cc(Cl)ccc12 | IIIB |  | cytopathic effect / MTT |  | >192 µM
Cc1cc(/C=C/C#N)cc(C)c1Oc1nc(NC2CCN(Cc3ccccc3Br)CC2)nc2ccsc12 | RES056 |  | MTT |  | 0.351 µM
C=C1C[C@@]23CC[C@@H]4C(C)(C)[C@H](O)C(=O)C[C@@]4(C)[C@@H]2C[C@@H]1CC3=O |  |  | MTT |  | >25 µg/mL
CNOC(=O)Cn1c(=O)c(C)cn([C@@H]2O[C@H](CO[Si](C)(C)C(C)(C)C)[C@@H](O)[C@H]2O[Si](C)(C)C(C)(C)C)c1=O | IIIB |  | cytopathic effect / trypan blue |  | >10 µM
Cc1ccccc1CN1CCC(Nc2nc(Oc3c(C)cc(/C=C/C#N)cc3C)c3sccc3n2)CC1 | IIIB | NNRTI-resistant (RT E138K) | MTT |  | 0.128 µM
O=[N+]([O-])c1ccc2c(c1)[n+]([O-])nc1ccnn12 | IIIB |  | cytopathic effect / MTT |  | >39 µM
CCOCn1c(Cc2ccccc2)c(C(C)C)c(=O)[nH]c1=O | IIIB |  | antigen |  | 0.005 µM
Cc1cn([C@@H]2O[C@@H]3CN[C@@]4(C#N)CS(=O)(=O)O[C@@]34[C@H]2O)c(=O)[nH]c1=O | IIIB |  |  |  | >250 µM
COc1ccc(N(C)C(=O)c2ccc(C3=NN4C(C(=O)c5ccc(F)cc5)Oc5ccccc5C4C3)cc2)cc1 | LAI |  | GFP / reporter gene |  | <1 µM
CCC(C)[C@@H](C(=O)N[C@@H](Cc1ccccc1)[C@H](O)CN(CC1CCCC1)S(=O)(=O)c1ccc(/C=N/O)cc1)N1CCN(Cc2cccc(C)n2)C1=O | A17 (LPV-resistant) | PR-L10F V32I M46I I47V Q68E I84V | cytopathic effect / MTT |  | 0.0004 µM
CCN1C[C@H](C)N2C(=C(O)C3C(=O)N4Cc5ccc(F)cc5C(=O)NCCCCS(=O)(=O)N(C)C(=N4)C32)C1=O | LAII(IIIB) |  |  |  | 0.5 µM
CC(C)CN(C[C@@H](O)[C@H](Cc1ccccc1)NC(=O)O[C@H]1CCOC1)S(=O)(=O)c1ccc(N)cc1 | T13572 | V32I L76V V82I | reporter gene |  | 4816 nM
COc1ccc(CNC(=O)c2ccc(C3=NN4C(C(=O)c5ccc(F)cc5)Oc5ccccc5C4C3)cc2)cc1 | LAI |  | GFP / reporter gene |  | >10 µM
[O-][n+]1nc2c(-c3ccccc3)cnn2c2ccccc21 | IIIB |  | cytopathic effect / MTT |  | >200 µM
Cc1cn([C@@H]2O[C@@H]3CN[C@@]4(OCCO)CS(=O)(=O)O[C@@]34[C@H]2O)c(=O)[nH]c1=O | IIIB |  |  |  | >250 µM
C#Cc1ccc(Nc2nccc(Oc3c(C)cc(-c4cn(CCc5cccs5)nn4)cc3C)n2)cc1 | IIIB | Y181C | MTT |  | >5.53 µM
CC(C)N1C[C@H](C)N2C(=C(O)C3C(=O)N4Cc5ccc(F)cc5OCCCCCS(=O)(=O)N(C)C(=N4)C32)C1=O | LAII(IIIB) |  |  |  | 2.29 µM
Nc1ccn([C@H]2CO[C@@H](CO)O2)c(=O)n1 |  |  | cytopathic effect |  | 0.175 µM
CCc1c(Cc2cc(C)cc(C)c2)n(COCC#Cc2ccc(CO)cc2)c(=O)[nH]c1=O | IIIB | Y181C | MTT |  | 1 µM
CC(C)CN(C[C@@H](O)[C@H](Cc1ccccc1)NC(=O)[C@H](C(C)C)N1CC(=O)N(Cc2ccccn2)C1=O)S(=O)(=O)c1ccc(/C=N/O)cc1 | A17 (LPV-resistant) | PR-L10F V32I M46I I47V Q68E I84V | cytopathic effect / MTT |  | 0.025 µM
C#Cc1ccc(Nc2nccc(Oc3c(C)cc(-c4cn(Cc5ccc(C(=O)OC)cc5)nn4)cc3C)n2)cc1 | IIIB | E138K | MTT |  | 0.61 µM
CCc1c(Cc2cc(C)cc(C)c2)nc(SC)[nH]c1=O |  |  | MTT |  | 2 µM
CC(C)CN(C[C@@H](O)[C@H](Cc1ccccc1)NC(=O)[C@H](C(C)C)N1CC(=O)N(Cc2ccccc2)C1=O)S(=O)(=O)c1ccc(/C=N/O)cc1 | A17 (LPV-resistant) | PR-L10F V32I M46I I47V Q68E I84V | cytopathic effect / MTT |  | 0.016 µM
Cc1cn([C@@H]2O[C@@H]3CN[C@@]4(OCC5CCOC5)CS(=O)(=O)O[C@@]34[C@H]2O)c(=O)[nH]c1=O | IIIB |  |  |  | 23.9 µM
CCN1C[C@H](C)N2C(=C(O)C3C(=O)N4Cc5ccc(F)cc5OCCCS(=O)(=O)N(C)C(=N4)C32)C1=O | LAII(IIIB) |  |  |  | 2.55 µM
CC(C)[C@H](C)CC[C@](C)(O)[C@H]1C(=O)C[C@H]2[C@@H]3C(=O)C=C4C[C@@H](O)CC[C@]4(C)[C@H]3CC[C@@]21C | NL4-3 | G140S INI-resistant | MTT |  | 0.1402 µM
CC(C)(C)[Si](C)(C)OC[C@H]1O[C@@H](n2cnc3c(=O)n(CC(=O)O)cnc32)[C@H](O)[C@@H]1O[Si](C)(C)C(C)(C)C | IIIB |  | cytopathic effect / trypan blue |  | 34 µM
Cc1cn([C@@H]2O[C@@H]3CN[C@@]4(O[Si](C)(C)C(C)(C)C)CS(=O)(=O)O[C@@]34[C@H]2O[Si](C)(C)C(C)(C)C)c(=O)[nH]c1=O | IIIB |  |  |  | >2 µM
CCC(C)[C@@H](C(=O)N[C@@H](Cc1ccccc1)[C@H](O)CN(CC(C)C)S(=O)(=O)c1ccc(/C=N/O)cc1)N1CCN(Cc2c(C)ccnc2C)C1=O |  |  | cytopathic effect / MTT |  | 0.003 µM
Nc1nc(=O)n([C@H]2C=C[C@@H](CO)O2)cc1F | NL-XM WT |  | p24 |  | <1.4 µM
CN(CCNC(C)(C)C)C(=O)c1ccc(C2=NN3C(C(=O)c4ccc(F)cc4)Oc4ccccc4C3C2)cc1 | LAI |  | GFP / reporter gene |  | 1–10 µM
C[C@@]12CCC(=O)[C@@](C)(COC(=O)c3ccccc3)[C@H]1CC[C@@]13CC[C@@H](C[C@H]12)C([C@@H](O)CO)C3 |  |  | MTT |  | >25 µg/mL
Cc1cc(/C=C/C#N)cc(C)c1Oc1nc(NC2CCN(Cc3cccc(C#N)c3)CC2)nc2ccsc12 | IIIB | NNRTI-resistant (RT Y181C) | MTT |  | 0.0269 µM
Cc1cn([C@H]2C[C@H](N=[N+]=[N-])[C@@H](CO)O2)c(=O)[nH]c1=O |  |  | MTT |  | 0.0086 µg/mL
Cc1cn([C@@H]2O[C@@H]3CN[C@@]4(OCCOc5ccccc5)CS(=O)(=O)O[C@@]34[C@H]2O)c(=O)[nH]c1=O | IIIB |  |  |  | >250 µM
C=C(CC[C@](C)(O)[C@H]1C(=O)C[C@H]2[C@@H]3C(=O)C[C@H]4C[C@H](O)CC[C@]4(C)[C@H]3CC[C@@]21C)C(C)C | NL4-3 |  | MTT |  | 3.02 µM
Nc1ccn([C@@H]2CS[C@H](CO)O2)c(=O)n1 | IIIB | Y181C | MTT |  | 2.4 µM
N#Cc1cnn2c1nnc1cc(Cl)ccc12 | IIIB |  | cytopathic effect / MTT |  | >4.5 µM
CN(C)CCN(Cc1ccccc1)C(=O)c1ccc(C2=NN3C(C(=O)c4ccc(F)cc4)Oc4ccccc4C3C2)cc1 | LAI |  | GFP / reporter gene |  | 1–10 µM
O=C1c2ccccc2C(=O)c2c1ccc(O)c2O | IIIB |  | cytopathic effect |  | 19 µg/mL
C=C1C[C@@]23CC[C@@H]4C(C)(C)[C@@H](O)CC[C@@]4(C)[C@@H]2C[C@@H]1[C@@H](O)C3=O |  |  | MTT |  | >25 µg/mL
COC(=O)CCCCn1c(=O)c(C)cn([C@@H]2O[C@H](CO[Si](C)(C)C(C)(C)C)[C@@H](O)[C@H]2O[Si](C)(C)C(C)(C)C)c1=O | IIIB |  | cytopathic effect / trypan blue |  | >10 µM
O=c1[nH]cnc2c1ncn2[C@H]1CS[C@@H](CO)O1 |  |  | cytopathic effect |  | >410 µM
CCc1c(Cc2cc(C)cc(C)c2)n(COC/C(Br)=C(\Br)c2ccccc2)c(=O)[nH]c1=O | IIIB | WT | MTT |  | 0.07 µM
COC(=O)Cn1c(=O)c(C)cn([C@@H]2O[C@H](CO[Si](C)(C)C(C)(C)C)[C@@H](O)[C@H]2O[Si](C)(C)C(C)(C)C)c1=O | IIIB |  | cytopathic effect / trypan blue |  | 7.2 µM

For reference, 9 entries again:

CNOC(=O)Cn1c(=O)c(C)cn([C@@H]2O[C@H](CO[Si](C)(C)C(C)(C)C)[C@@H](O)[C@H]2O[Si](C)(C)C(C)(C)C)c1=O ; strain: IIIB ; method: cytopathic effect / trypan blue ; value: >10 µM
C=C1C[C@@]23CC[C@@H]4C(C)(C)[C@H](O)C(=O)C[C@@]4(C)[C@@H]2C[C@@H]1CC3=O ; method: MTT ; value: >25 µg/mL
O=c1[nH]cnc2c1ncn2[C@H]1CS[C@@H](CO)O1 ; method: cytopathic effect ; value: >410 µM
C=C1C[C@@]23CC[C@@H]4C(C)(C)[C@@H](O)CC[C@@]4(C)[C@@H]2C[C@@H]1[C@@H](O)C3=O ; method: MTT ; value: >25 µg/mL
CCc1c(Cc2cc(C)cc(C)c2)nc(SC)[nH]c1=O ; method: MTT ; value: 2 µM
CCN1C[C@H](C)N2C(=C(O)C3C(=O)N4Cc5ccc(F)cc5OCCCS(=O)(=O)N(C)C(=N4)C32)C1=O ; strain: LAII(IIIB) ; value: 2.55 µM
N#Cc1cnn2c1nnc1cc(Cl)ccc12 ; strain: IIIB ; method: cytopathic effect / MTT ; value: >4.5 µM
Cc1cn([C@H]2C[C@H](N=[N+]=[N-])[C@@H](CO)O2)c(=O)[nH]c1=O ; method: MTT ; value: 0.0086 µg/mL
C=C(CC[C@](C)(O)[C@H]1C(=O)C[C@H]2[C@@H]3C(=O)C[C@H]4C[C@H](O)CC[C@]4(C)[C@H]3CC[C@@]21C)C(C)C ; strain: NL4-3 ; method: MTT ; value: 3.02 µM